Laboratory results: PubChem BioAssay AID504761 (Drosophila RNAi Screening Center, 2011)
In all, the deposit lists about 22,000 reagents; this is an unselected part of those that have a named target and a result. Over the whole deposit, 116 (0.52%) are marked active. 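Calls depend on retest data that are not deposited; infection was ranked per plate without normalising between plates; the unit of the infection score is not given.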 Raw values are not corrected between plates. A number with no mark means an inactive call. Names joined by + are all predicted targets of the reagent. Not stated in the record: the amount of reagent, the time to read-out.

Assay: 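Genome-wide fly cell screen for genes dengue virus requires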 (primary screen)
Cells: D.Mel-2 cells from Drosophila
Reagent: long dsRNA against Drosophila genes
Conditions: infection with dengue virus type 2; dose and infection time not stated
Measurement: 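Per well on two replicate plates, imaging gave the percent of cells positive for viral envelope protein, ranked by infection, and a nuclear count of cells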
Reading the numbers: infection score: higher = more virus-infected cells; cell count: higher = more cells in the well
Hit rule: 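Low infection ranks in the two replicates (chance level up to 0.065) followed by a retest with a 1.5-fold or larger significant decrease, p below 0.05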
Meaning of the calls: active = confirmed: knock-down lowers infection; inactive = not picked or not confirmed

Target gene,PubChem SID,"infection score, replicate 1","infection score, replicate 2","cell count, replicate 1","cell count, replicate 2"
Ube3a (Ubiquitin protein ligase E3A),SID104190392,3.78,2.37,6675,7033
cup,SID104183308,4.35,4.87,5705,6053
cup,SID104203292,0.7,7.42,6250,5967
sphinx2,SID104201729,4.93,3.78,6331,6184
sphinx2,SID104203386,2.47,2.36,6678,6870
hth (homothorax),SID104196759,3.71,17.5,836,5285
hth (homothorax),SID104203375,1.08,0.62,6386,6499
Tab2 (TAK1-associated binding protein 2),SID104187273,1.02,0.75,6567,6901
CG7741,SID104186827,,8.86,477,1276
EDTP (Egg-derived tyrosine phosphatase),SID104187201,17,12,4891,5729
Rad17,SID104196603,6.18,13.8,6688,5928
CG3704,SID104197966,14.3,3.37,4412,5787
CG3704,SID104198437,6.54,11.4,1605,4675
CG3704,SID104206762,,10.4,354,2566
dgt4 (dim gamma-tubulin 4),SID104198451,,6.82,239,5602
dgt4 (dim gamma-tubulin 4),SID104207117,,,403,342
CG5746,SID104195660,2.5,2.43,6077,5642
CG5746,SID104203998,8.64,6.35,6329,5305
CG3226,SID104198088,5.73,0.34,6689,293
rept (reptin),SID104191180,28.8,15.6,3078,3448
rept (reptin),SID104205727,20.8,33.4,2708,4040
Nufip,SID104190189,6.31,12.2,6327,6532
Cdc27 (Cell division cycle 27),SID104190904,9.95,7.64,2261,2250
Cdc27 (Cell division cycle 27),SID104202736,2.11,26.4,855,1518
Or71a (Odorant receptor 71a),SID104191036,2.27,3.14,6558,6024
CG13243,SID104181712,4.45,1.04,6275,6434
Andorra,SID104199267,1.91,16.9,6947,6829
CG11951,SID104194234,2.62,1.39,6537,7219
CG11951,SID104204189,13.4,12.6,6884,6586
Desat1 (Desaturase 1),SID104196460,8.87,18.1,5231,5828
Desat1 (Desaturase 1),SID104202803,0.79,0.64,3301,2176
SelR (Selenoprotein R),SID104195863,2.09,8.91,6662,6554
Tsp66A + CG42661 + CG42660,SID104190025,4.46,24.8,6118,5327
CG6675,SID104183527,10.1,16,6422,6531
CG14014,SID104182137,2.54,3.07,6531,6459
CG13171,SID104186091,16.8,30.1,5870,6451
Tsp26A (Tetraspanin 26A),SID104182927,9.05,12.6,5437,2832
Nlg2 (Neuroligin 2),SID104183370,1.21,3.65,5961,6653
Nlg2 (Neuroligin 2),SID104203763,3.05,4.99,5993,6175
Ret (Ret oncogene),SID104183201,15.7,14.6,6559,5373
Ret (Ret oncogene),SID104183202,0.24,0.15,829,687
Uhg3 (U snoRNA host gene 3),SID104202320,1.54,3.49,5920,6214
mael (maelstrom),SID104191686,9.37,3.97,2850,6705
Slimp (Seryl-tRNA synthetase-like insect mitochondrial protein),SID104193448,2.34,2.66,6056,5679
CG10265,SID104185778,17.8,2.38,4982,6440
CG10265,SID104201361,2.35,6.07,6055,6574
CG15308,SID104197787,5.07,16.6,6000,5286
TkR86C (Tachykinin-like receptor at 86C),SID104196672,1.44,10.4,6256,6091
Sgs7 (Salivary gland secretion 7),SID104191073,1.59,3.09,5736,6406
c(2)M (crossover suppressor on 2 of Manheim),SID104181714,11.6,17.5,6430,6246
CHKov1 (CHK domain ov1),SID104181358,6.05,3.27,6147,6335
CHKov1 (CHK domain ov1),SID104181488,4.05,3.41,5848,5860
CHKov1 (CHK domain ov1),SID104194050,11.6,12.4,5462,6653
CHKov1 (CHK domain ov1),SID104200729,4.11,12.7,6683,5252
CHKov1 (CHK domain ov1),SID104208607,3.71,9.68,6284,5941
CG31816,SID104181339,9.02,8.86,6145,5599
Prp16 (pre-mRNA processing factor 16),SID104199330,18.5,12.1,4558,5164
Prp16 (pre-mRNA processing factor 16),SID104199334,10.2,14.9,4658,4799

Sorted by “cell count, replicate 2” (high to low): 5 of the entries above
Target gene,PubChem SID,"infection score, replicate 1","infection score, replicate 2","cell count, replicate 1","cell count, replicate 2"
CG11951,SID104194234,2.62,1.39,6537,7219
Andorra,SID104199267,1.91,16.9,6947,6829
CG11951,SID104204189,13.4,12.6,6884,6586
CG13243,SID104181712,4.45,1.04,6275,6434
Or71a (Odorant receptor 71a),SID104191036,2.27,3.14,6558,6024
